From paper PMC4328002 (Natural Products and Bioprospecting, 2015)
Read-outs that look alike come from different tables or passages of the source.

What was measured:
[1] = test system: HL-60, SMMC-7721, A549, MCF-7 and SW-480 human cancer cell lines; assay: MTT cytotoxicity assay, five human cancer cell lines taken together; type: cell-based; conditions: read-out: IC50 values across the five cancer cell lines; HL-60, SMMC-7721, A549, MCF-7, SW-480; 48-h treatment; summary over all five lines
A549 (lung carcinoma) = assay: MTT cytotoxicity assay, A549; type: cell-based, human
[2] = test system: BEAS-2B normal cell line (human bronchial epithelial cell); assay: MTT cytotoxicity assay, BEAS-2B normal cell line; conditions: read-out: Cancer cell line IC50, BEAS-2B, selectivity experiment, Table 3
[3] = test system: SMMC-7721 (hepatocarcinoma); assay: MTT cytotoxicity assay, SMMC-7721; type: cell-based, human; conditions: read-out: Cancer cell line IC50, SMMC-7721; SMMC-7721, MTT, 48 h, Table 2
[4] = test system: MCF-7 (breast adenocarcinoma); assay: MTT cytotoxicity assay, MCF-7; type: cell-based, human; conditions: read-out: Cancer cell line IC50, MCF-7; MCF-7, MTT, 48 h, Table 2
[5] = test system: HL-60 (promyelocytic leukemia); assay: MTT cytotoxicity assay, HL-60; type: cell-based, human; conditions: read-out: Cancer cell line IC50, HL-60; HL-60, MTT, 48 h, Table 2
[6] = test system: SW-480 (colon adenocarcinoma); assay: MTT cytotoxicity assay, SW-480; type: cell-based, human; conditions: read-out: Cancer cell line IC50, SW480, 48 h, Table 2
[7] = read-out: Cancer cell line IC50, A549, 48 h, Table 2
[8] = read-out: Cancer cell line IC50, A549, selectivity experiment, Table 3

Work on `C/C=C\C(=O)O[C@@H]1C[C@H]2O[C@@H]3C=C(C)CC[C@]3(C)[C@]1(C)[C@]21CO1` yielded an IC50 [1] of under 3500 nM, an IC50 (A549 (lung carcinoma); [7]) of 140 nM and an IC50 (A549 (lung carcinoma); [8]) of 150 nM. It also gave an IC50 [2] of 110 nM, an IC50 [3] of 150 nM and an IC50 [4] of 230 nM. It also gave an IC50 [5] of 100 nM and an IC50 [6] of 150 nM.

In the case of `CC1=C[C@H]2O[C@@H]3C[C@@H](O)[C@](C)([C@@]2(C)CC1)[C@]31CO1`, the IC50 [1] is reported as under 3500 nM, the IC50 (A549 (lung carcinoma); [7]) is reported as 1010 nM and the IC50 (A549 (lung carcinoma); [8]) is reported as 1540 nM. It also gave an IC50 [2] of 1060 nM, an IC50 [3] of 2140 nM and an IC50 [4] of 3430 nM. It also gave an IC50 [5] of 1530 nM and an IC50 [6] of 1870 nM.

In the case of `C/C=C\C(=O)O[C@@H]1C[C@H]2O[C@@H]3C=C(C)C(O)C[C@]3(C)[C@]1(C)[C@]21CO1` (stereo partly drawn), the IC50 [1] is reported as under 3500 nM, the IC50 (A549 (lung carcinoma); [7]) is reported as 400 nM and the IC50 (A549 (lung carcinoma); [8]) is reported as 560 nM. The IC50 [2] was 450 nM, the IC50 [3] was 450 nM and the IC50 [4] was 540 nM. For the same molecule, the IC50 [5] was 1680 nM and the IC50 [6] was 350 nM.
